Pooled drug test results. Numbers come from NIAID ChemDB, via PubChem.

Common to all: growth or infection tests; organism: Candida albicans; read-out: MIC

Blank or dashed fields: not listed here. a–b is a range or a potency band. Lines come from different laboratories, so protocols vary.

{"structure": "OCc1ccc(O)c(N=Nc2nc3ccccc3[nH]2)c1", "method": "agar", "result": "<0.016 µg/mL"}
{"structure": "CC[C@@H]1OC(=O)[C@H](C)C(=O)C(O)(CO)C/C(Cl)=C/[C@@H](C)Cc2cccc1c2", "strain or isolate": "ATCC 90028", "result": ">64 µg/mL"}
{"structure": "C=C(C)C1OC2=C(C(=O)c3cccc(O)c3C2=O)C1O", "result": "10 µg/mL"}
{"structure": "CN1CCC(n2cc(-c3nc(-c4ccc(Cl)cc4)n[nH]3)nn2)CC1", "method": "agar", "result": "25 µg/mL"}
{"structure": "COc1ccc(C2CC(=NO)CC(c3ccc(OC)cc3)N2OCCc2nc3ccccc3o2)cc1", "result": "50 µg/mL"}
{"structure": "C[C@H]1[C@H](O)[C@@H](C)/C=C/C=C/C=C/C=C/C=C/C=C/C=C/[C@H](O[C@@H]2O[C@H](C)[C@@H](O)[C@H](N)[C@@H]2O)C[C@@H]2O[C@](O)(C[C@@H](O)C[C@@H](O)CC[C@H](O)[C@@H](O)C[C@@H](O)CC(=O)O[C@H]1C)C[C@H](O)[C@H]2C(=O)O", "strain or isolate": "Clinical isolate", "method": "absorbance", "result": "0.5 µg/mL"}
{"structure": "CCOC(=O)C(C#N)=NNc1nc2ccccc2[nH]1", "method": "agar", "result": "<0.016 µg/mL"}
{"structure": "Cc1c(O)c(=O)ccn1CCC1=NCCS1", "result": "50 µg/mL"}
{"structure": "Cc1ccc(N2NOC(=O)C2S(=O)(=O)Nc2nc3c([N+](=O)[O-])cccc3s2)cc1", "strain or isolate": "MTCC 227", "method": "broth dilution", "result": "500 µg/mL"}
{"structure": "CCCCCCCCSc1cc(C(N)=S)ccn1", "strain or isolate": "3a", "result": "12.5 µg/mL"}
{"structure": "CC(N(C)C)C(O)(Cn1cncn1)c1ccc(F)cc1F", "strain or isolate": "KC-03", "result": "0.2 µg/mL"}
{"structure": "COc1ccc(-c2nc3ccccc3c(=O)n2-c2ccc(NS(=O)(=O)C3C(=O)ONN3c3ccc(C)cc3)cc2)cc1", "strain or isolate": "MTCC 227", "method": "broth dilution", "result": "500 µg/mL"}
{"structure": "COc1ccc(C2NC(=S)Nc3n[nH]c(C(C)C)c32)cc1OC", "strain or isolate": "ATCC 10231", "result": "312.5 µg/mL"}
{"structure": "CCCC(C)C(OC(=O)/C=C/c1ccccc1)C(C)C(O)C/C=C/C=C\\C(N)=O", "strain or isolate": "ATCC 10231", "result": "25 µg/mL"}
{"structure": "CCC(C)n1ncn(-c2ccc(N3CCN(c4ccc(OC[C@H]5CO[C@](Cn6cncn6)(c6ccncc6)O5)cc4)CC3)cc2)c1=O", "strain or isolate": "21", "result": "39 µg/mL"}
{"structure": "CO[C@H]1C[C@@H]2CC[C@@H](C)[C@@](O)(O2)C(=O)C(=O)N2CCCC[C@H]2C(=O)O[C@H]([C@H](C)C[C@@H]2CC[C@@H](C(=O)ON(C)C)[C@H](OC)C2)CC(=O)[C@H](C)/C=C(\\C)[C@@H](O)[C@@H](OC)C(=O)[C@H](C)C[C@H](C)CCCC/C=C/1C", "strain or isolate": "38247", "result": "50 µg/mL"}
{"structure": "C#CC#CC#CC#C/C=C/C=C/C(O)CCCCC(=O)O", "result": "0.05 µg/mL"}
{"structure": "Cc1ccc(-c2csc(NS(=O)(=O)C3C(=O)ONN3c3ccc(C)cc3)n2)cc1", "strain or isolate": "MTCC 227", "method": "broth dilution", "result": "1000 µg/mL"}
{"structure": "CCCSc1cc(C(N)=S)ccn1", "strain or isolate": "3a", "result": "100 µg/mL"}
{"structure": "Fc1ccc(-c2cn(-c3ccccc3)nc2C=Nc2nc3ccccc3[nH]2)cc1", "method": "agar", "result": "<0.016 µg/mL"}
{"structure": "CC1CC2=C(O1)c1ccccc1C(=O)C2=O", "strain or isolate": "1", "method": "broth dilution", "result": "8 µg/mL"}
{"structure": "CC(C)=CCC/C(C)=C/CN(C/C=C(\\C)CCC=C(C)C)C(=N)N", "strain or isolate": "ATCC 90028", "result": "250 µg/mL"}
{"structure": "CS(=O)(=O)N1CCC(n2cc(-c3nc(-c4ccc([N+](=O)[O-])cc4)n[nH]3)nn2)CC1", "method": "agar", "result": "30 µg/mL"}
{"structure": "COc1ccc2cc1Oc1ccc(cc1)CCc1cc(O)ccc1-c1ccc(cc1O)CC2", "strain or isolate": "CA 02", "method": "broth dilution", "result": ">512 µg/mL"}
{"structure": "C=C1/C=C(\\C)[C@H](CC)OC(=O)[C@H](C)C(=O)C(O)(CO)C/C(OC)=C/[C@@H](C)C1", "strain or isolate": "MY1005", "result": "6.25 µg/mL"}
{"structure": "C(=Nc1nc2ccccc2[nH]1)c1nn(-c2ccccc2)cc1-c1ccccc1", "method": "agar", "result": "<0.016 µg/mL"}
{"structure": "OC[C@H]1OC(Oc2cc(/C=C/c3ccc(O)cc3)cc(OC3O[C@H](CO)[C@H](O)[C@@H](O)[C@@H]3O)c2)[C@@H](O)[C@H](O)[C@H]1O", "strain or isolate": "ATCC 9002", "method": "XTT / absorbance", "result": "128 µg/mL"}
{"structure": "O=C(NNCc1ccc(Cl)cc1Cl)c1ccccc1SSc1ccccc1C(=O)NNCc1ccc(Cl)cc1Cl", "result": ">250 µg/mL"}
{"structure": "ON=C1CC(c2ccccc2)N(OCCc2nc3ccccc3[nH]2)C(c2ccccc2)C1", "result": "200 µg/mL"}
{"structure": "CC(=O)N1CCC(n2cc(-c3nc(-c4ccc(C)cc4)n[nH]3)nn2)CC1", "method": "agar", "result": "80 µg/mL"}
{"structure": "Cc1cc(=O)c(O)cn1CC1=NCCS1", "result": "50 µg/mL"}
{"structure": "Oc1ccc2cc1Oc1ccc(cc1)CCc1ccc(O)c(O)c1Oc1cccc(c1)CC2", "strain or isolate": "CA10", "method": "broth dilution", "result": "256 µg/mL"}
{"structure": "N#Cc1n[nH]c2nc3ccccc3n2c1=O", "method": "agar", "result": "<0.016 µg/mL"}
{"structure": "COC1CC2CCC(C)C(O)(O2)C(=O)C(=O)N2CCCCC2C(=O)OC(C(C)CC2CCC(O)C(OC)C2)CC(=O)C(C)/C=C(\\C)C(O)C(OC)C(=O)C(C)C[C@](C)(N(O)C(=O)NN2CCCCC2)/C=C/C=C/C=C/1C", "strain or isolate": "WILD TYPE", "result": "0.78 µg/mL"}
{"structure": "C=C1CC[C@@H]2[C@](C)(CCC3[C@@]4(C)[C@H](O)CCC(C)(C)[C@@H]4CC[C@]32C)[C@H]1CN=C(N)N", "result": "4 µM"}
{"structure": "NC(=S)c1cccc(-c2ccccn2)n1", "strain or isolate": "17 strains", "result": "12.5 µg/mL"}
{"structure": "COc1ccccc1/C=N/NC(=O)c1cc(Cl)ccc1SSc1ccc(Cl)cc1C(=O)N/N=C/c1ccccc1OC", "result": "250 µg/mL"}
{"structure": "CC(C)S(=O)(=O)N1CCN(c2cnn(-c3cc(F)cc(F)c3)c(=O)c2OC2CCC(F)C2)CC1", "strain or isolate": "C294", "method": "broth dilution", "result": "0.125 µg/mL"}
{"structure": "O=C(CSc1nnc(-c2ccncc2)n1-c1ccccc1)c1ccccc1", "strain or isolate": "ATCC 10231", "result": "25 µg/mL"}
{"structure": "CCc1nc2ccccc2n1CC(O)(Cn1cncn1)c1ccc(F)cc1F", "result": "6.25–12.5 µg/mL"}
{"structure": "C[C@H]1[C@H](O)[C@@H](C)/C=C/C=C/C=C/C=C/C=C/C=C/C=C/[C@H](O[C@@H]2O[C@H](C)[C@@H](O)[C@H](N)[C@@H]2O)C[C@@H]2O[C@](O)(C[C@@H](O)C[C@@H](O)CC[C@H](O)[C@@H](O)C[C@@H](O)CC(=O)O[C@H]1C)C[C@H](O)[C@H]2C(=O)O", "strain or isolate": "SC14059 (azole-resistant)", "result": "0.25 µg/mL"}
{"structure": "C=C(C)c1cc2c(o1)C(=O)c1c(O)cccc1C2=O", "result": "40 µg/mL"}
{"structure": "CCCCCSc1cc(C(N)=S)ccn1", "strain or isolate": "3a", "result": "50 µg/mL"}
{"structure": "Cc1c(O)cccc1C(=O)N[C@@H](CSc1ccccc1)[C@H](O)CN1C[C@H]2CCCC[C@H]2C[C@H]1C(=O)NC(C)(C)C", "strain or isolate": "I49C", "result": ">64 µg/mL"}
{"structure": "CCS(=O)(=O)C(F)(F)C(O)(Cn1cncn1)c1ccc(F)cc1F", "strain or isolate": "IFM 47601 fluconazole-resistant", "result": ">16 µg/mL"}
{"structure": "CCCCCCCCCCCCCCCCCC(=O)NC1CC(O)C(O)NC(=O)C2C(O)C(C)CN2C(=O)C(C(C)O)NC(=O)C(C(O)C(O)c2ccc(O)cc2)NC(=O)C2CC(O)CN2C(=O)C(C(C)O)NC1=O", "strain or isolate": "MY1585", "result": "1 µg/mL"}
{"structure": "CCCCCOc1ccc(-c2cc(-c3ccc(C(=O)N[C@H]4C[C@@H](O)[C@@H](O)NC(=O)[C@@H]5[C@@H](O)[C@@H](C)CN5C(=O)[C@H]([C@H](O)CC(N)=O)NC(=O)[C@H]([C@H](O)[C@@H](O)c5ccc(O)c(OS(=O)(=O)O)c5)NC(=O)[C@@H]5C[C@@H](O)CN5C(=O)[C@H]([C@@H](C)O)NC4=O)cc3)no2)cc1", "strain or isolate": "OY-31.5", "result": "0.0312 µg/mL"}
{"structure": "CC(=O)OC(CCCC12OC(C(=O)O)C(O)(C(=O)O)C(C(=O)O)(O1)C(OC(=O)CCCCCC/C=C/c1ccccc1)C2O)C(C)C/C=C/c1ccccc1", "strain or isolate": "SC", "result": "3.1 µg/mL"}
{"structure": "Nc1[nH]n(-c2ccccc2)c(=O)c1N=Nc1nc2ccccc2[nH]1", "method": "agar", "result": "<0.016 µg/mL"}
{"structure": "OC(c1ccccc1)c1nccn1CC(O)(Cn1cncn1)c1ccc(F)cc1F", "result": "25–50 µg/mL"}
{"structure": "O=C(N/N=C/c1ccc2ccccc2n1)c1ccccc1SSc1ccccc1C(=O)N/N=C/c1ccc2ccccc2n1", "result": "250 µg/mL"}
{"structure": "CCn1c(SCC(=O)c2ccccc2)nnc1-c1ccncc1", "strain or isolate": "ATCC 10231", "result": "25 µg/mL"}
{"structure": "CC(C)=CCC/C(C)=C/CN=C(N)NC/C=C(\\C)CCC=C(C)C", "strain or isolate": "ATCC 90028", "result": "250 µg/mL"}
{"structure": "Cc1cc(=O)c(O)cn1CCC1=NCCS1", "result": "50 µg/mL"}
{"structure": "CO[C@@H]1C[C@H](C[C@@H](C)[C@@H]2CC(=O)[C@H](C)/C=C(\\C)[C@@H](O)[C@@H](OC)C(=O)[C@H](C)C[C@H](C)/C=C/C=C/C=C(\\C)[C@H](N(OC)C(=O)N(C)C)C[C@@H]3CC[C@@H](C)[C@@](O)(O3)C(=O)C(=O)N3CCCC[C@H]3C(=O)O2)CC[C@H]1C(=O)ON(C)O", "strain or isolate": "10231", "result": ">100 µg/mL"}
{"structure": "COc1ccc2cc1Oc1ccc(cc1)CCc1ccc(c(O)c1)Oc1cccc(c1)CC2", "strain or isolate": "CA10", "method": "broth dilution", "result": ">512 µg/mL"}
{"structure": "C=C1CC[C@H]2C[C@@H]1C2(C)C", "strain or isolate": "UMIP 48.72", "method": "broth dilution", "result": "3000 µg/mL"}
{"structure": "O=c1ccn(CCC2=NCCS2)cc1O", "result": "50 µg/mL"}
{"structure": "OC(Cn1cncn1)(Cn1ccnc1-c1ccc(Cl)cc1)c1ccc(F)cc1F", "result": "<3.125 µg/mL"}
{"structure": "CC(=O)N1CCC(n2cc(-c3nc(-c4ccc(Cl)cc4)n[nH]3)nn2)CC1", "method": "agar", "result": "30 µg/mL"}
{"structure": "CCOC(=O)c1cc(C)nc2sc3c(Cl)nnnc3c12", "result": ">100 µg/mL"}
{"structure": "Cc1nc2ccccc2n1CC(O)(Cn1cncn1)c1ccc(F)cc1F", "result": "6.25–12.5 µg/mL"}
{"structure": "CO[C@@H]1C[C@H](C[C@@H](C)[C@@H]2CC(=O)[C@H](C)/C=C(\\C)[C@@H](O)[C@@H](OC)C(=O)[C@H](C)C[C@H](C)/C=C/C=C/C=C(\\C)[C@H](N(O)C(=O)N(C)C)C[C@@H]3CC[C@@H](C)[C@@](O)(O3)C(=O)C(=O)N3CCCC[C@H]3C(=O)O2)CC[C@H]1C(=O)ON(C)O", "strain or isolate": "10231", "result": "100 µg/mL"}
{"structure": "CCN1CCC(n2cc(-c3nc(-c4ccc(OC)cc4)n[nH]3)nn2)CC1", "method": "agar", "result": "60 µg/mL"}
{"structure": "C=C(C)C1OC2=C(C(=O)c3ccccc3C2=O)C1O", "result": "40 µg/mL"}
{"structure": "Clc1nnnc2c1sc1ncccc12", "result": "6.25–12.5 µg/mL"}
{"structure": "COC1CC2CCC(C)C(O)(O2)C(O)C(O)N2CCCCC2C(=O)OC(C(C)CC2CCC(O)C(OC)C2)CC(=O)C(C)/C=C(\\C)C(O)C(OC)C(=O)C(C)CC(C)/C=C/C=C/C=C/1C", "strain or isolate": "TOR1-1/TOR1", "result": ">100 µg/mL"}
{"structure": "CC[C@H](C)n1ncn(-c2ccc(N3CCN(c4ccc(OC[C@@H]5CO[C@@](Cn6cncn6)(c6ccccn6)O5)cc4)CC3)cc2)c1=O", "strain or isolate": "GEN-45", "result": "≤0.03 µg/mL"}
{"structure": "O=c1ccn(CC2=NCCS2)cc1OCc1ccccc1", "result": "75 µg/mL"}
{"structure": "Cc1[nH]n(-c2ccccc2)c(=O)c1N=Nc1nc2ccccc2[nH]1", "method": "agar", "result": "<0.016 µg/mL"}
{"structure": "ON=C1CC(c2ccccc2)N(OCCc2nc3ccccc3o2)C(c2ccccc2)C1", "result": "100 µg/mL"}

Again, the opening 5 rows:

| structure | strain or isolate | method | result |
|---|---|---|---|
| OCc1ccc(O)c(N=Nc2nc3ccccc3[nH]2)c1 |  | agar | <0.016 µg/mL |
| CC[C@@H]1OC(=O)[C@H](C)C(=O)C(O)(CO)C/C(Cl)=C/[C@@H](C)Cc2cccc1c2 | ATCC 90028 |  | >64 µg/mL |
| C=C(C)C1OC2=C(C(=O)c3cccc(O)c3C2=O)C1O |  |  | 10 µg/mL |
| CN1CCC(n2cc(-c3nc(-c4ccc(Cl)cc4)n[nH]3)nn2)CC1 |  | agar | 25 µg/mL |
| COc1ccc(C2CC(=NO)CC(c3ccc(OC)cc3)N2OCCc2nc3ccccc3o2)cc1 |  |  | 50 µg/mL |